# Potato spindle tuber viroid, loop 15: variant abundance in plants

The measurements come from Wu et al. 2024 (doi:10.1371/journal.ppat.1012142).

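A pool of all variants was put on leaves of three Nicotiana benthamiana plants. Samples came from the inoculated region at 5 days, the leaf margin at 10 and upper systemic leaves at 12.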

PSTVd intermediate strain, loop 15: wild type GGAAACCGCUACUAC, pool pattern GGAAACCGNNNNNNC; upper and lower strand joined, each 5' to 3', the first 7 letters being the upper strand, closing pairs included.

Numbers give reads per thousand; 0 = not seen among the reads, higher = more abundant.
Each site shows the three plants.
"Pool" is the share in the plasmid pool used as inoculum, on the same scale.
The inoculated region was read from the minus strand, the other sites from the plus strand.
IR is the inoculated region, LM the leaf margin, Sys the systemic leaves.
Wild type was 33.9 per thousand in the pool and the most common sequence in every sample (inoculated region 202, 200, 159; leaf margin 724, 746, 710; systemic leaves 856, 883, 880).
Sequences that differ at fixed positions probably stem from PCR or sequencing errors, and defective variants can be carried along by functional ones.
Samples held 43,870 to 66,106 reads, so the smallest values rest on one or two reads.

* GGAAACCGUAGACUC (pool 0.160): IR 0.0655 / 0.0482 / 0.0571; LM 0.0162 / 0 / 0; Sys 0.0161 / 0 / 0
* GGAAACCGGUGUAGC (pool 0.272): IR 0 / 0.112 / 0.0381; LM 0 / 0 / 0.0200; Sys 0 / 0 / 0
* GGAAACCGUCUAACC (pool 0.336): IR 0.115 / 0.0643 / 0.0762; LM 0.0162 / 0 / 0.0200; Sys 0 / 0 / 0
* GGAAACCGCAACACC (pool 0.320): IR 0.131 / 0.0964 / 0.0762; LM 0.0162 / 0 / 0.0200; Sys 0 / 0 / 0
* GGAAACCGGCAUACC (pool 0.256): IR 0.164 / 0.145 / 0.133; LM 0.0162 / 0 / 0; Sys 0 / 0 / 0
* GGAAACCGGCUACAC (pool 0.304): IR 0.115 / 0.0803 / 0.0762; LM 0.0162 / 0.0223 / 0.0200; Sys 0.0161 / 0 / 0
* GGAAACCGGGAUCGC (pool 0.224): IR 0.131 / 0.0643 / 0.0952; LM 0 / 0 / 0.0200; Sys 0 / 0 / 0
* GGAAACCGAUUCAGC (pool 0.0800): IR 0.180 / 0.0643 / 0.0571; LM 0.0162 / 0.0445 / 0; Sys 0 / 0 / 0
* GGAAACCGUUCGCUC (pool 0.208): IR 0.0491 / 0.0482 / 0.114; LM 0 / 0 / 0; Sys 0 / 0 / 0
* GGAAACCGACUGACC (pool 0.272): IR 0.0328 / 0.0964 / 0.0381; LM 0 / 0 / 0.0801; Sys 0.0161 / 0 / 0
* GGAAACCGACAUGUC (pool 0.288): IR 0.0983 / 0.0643 / 0.0571; LM 0 / 0 / 0.0200; Sys 0 / 0 / 0
* GGAAACCGCUUUCAC (pool 0.304): IR 0.147 / 0.0964 / 0.133; LM 0 / 0 / 0; Sys 0 / 0 / 0
* GGAAACCGAUGUCAC (pool 0.256): IR 0.0819 / 0.0964 / 0.0762; LM 0 / 0.0223 / 0.0401; Sys 0.0161 / 0 / 0
* GGAAACCGCGUUAAC (pool 0.144): IR 0.0491 / 0.112 / 0.209; LM 0 / 0 / 0.0200; Sys 0 / 0 / 0
* GGAAACCGCACCUGC (pool 0.224): IR 0.262 / 0.225 / 0.267; LM 0.0162 / 0 / 0.0200; Sys 0 / 0.0151 / 0
* GGAAACCGGCCUGGC (pool 0.208): IR 0.0655 / 0.0643 / 0.0762; LM 0.0162 / 0.0223 / 0.0200; Sys 0.0161 / 0 / 0
* GGAAACCGCCCGUAC (pool 0.304): IR 0.197 / 0.289 / 0.400; LM 0.146 / 0.0668 / 0.120; Sys 0.0805 / 0.0303 / 0.114
* GGAAACCGGCCCUCC (pool 0.144): IR 0.229 / 0.0643 / 0.209; LM 0 / 0.0223 / 0.0401; Sys 0.0161 / 0.0151 / 0
* GGAAACCGUCUCCAC (pool 0.112): IR 0.0491 / 0.0803 / 0.0762; LM 0.0162 / 0 / 0; Sys 0 / 0 / 0
* GGAAACCGAACAAGC (pool 0.192): IR 0.0819 / 0.0803 / 0.0952; LM 0 / 0.0223 / 0; Sys 0 / 0 / 0
* GGAAACCGGGAGCUC (pool 0.240): IR 0.0983 / 0.0803 / 0.0571; LM 0.0162 / 0 / 0; Sys 0 / 0 / 0
* GGAAACCGGAAUCCC (pool 0.256): IR 0.0491 / 0.0803 / 0.0762; LM 0 / 0 / 0.0200; Sys 0 / 0 / 0
* GGAAACCGUGACGGC (pool 0.224): IR 0.180 / 0.0161 / 0.0952; LM 0.0162 / 0.0223 / 0.0200; Sys 0 / 0 / 0
* GGAAACCGCGAGGUC (pool 0.0480): IR 0.278 / 0.418 / 0.476; LM 0.0485 / 0.0668 / 0.160; Sys 0.0322 / 0 / 0.137
* GGAAACCGGUUGCAC (pool 0.144): IR 0.0819 / 0.0803 / 0.114; LM 0.0323 / 0.0223 / 0; Sys 0 / 0 / 0
* GGAAACCGUGCGGUC (pool 0.192): IR 0.0655 / 0.112 / 0.133; LM 0 / 0 / 0; Sys 0 / 0 / 0
* GGAAACCGUACCCGC (pool 0.128): IR 0.0491 / 0.0964 / 0.0190; LM 0.0162 / 0 / 0.0401; Sys 0 / 0 / 0
* GGAAACCGAUAAGAC (pool 0.336): IR 0.147 / 0.112 / 0.0952; LM 0 / 0 / 0; Sys 0 / 0 / 0